Laboratory results reported in ChEMBL document CHEMBL5150021, “Identification of 5-(Aryl/Heteroaryl)amino-4-quinolones as Potent Membrane-Disrupting Agents to Combat Antibiotic-Resistant Gram-Positive Bacteria” (J Med Chem, 2022).

Test system: Staphylococcus aureus
Experiment: Induction of drug resistance in Staphylococcus aureus FPR3757 assessed as fold increase in MIC incubated for 65 days relative to control
Type: functional
Conditions: time 65.0 day

With `FC(F)(F)c1ccc(Nc2cc(C(F)(F)F)nc3cc(C(F)(F)F)ccc23)nc1` the fold change (FC) was 2.
